Measured values from several laboratories, pooled; numbers as filed in NIAID ChemDB.

Common to all: growth or infection tests; species: HIV-1; cells: HeLa; read-out: EC50

Two numbers with a dash give a range or band. Rows are shuffled and stem from different studies. ECn is the concentration giving n% inhibition of infection, replication or growth.

{"compound": "O=C(C(=O)N1CCC(=C(Br)c2ccccc2)CC1)c1c[nH]c2c(Cl)ccnc12", "read by": "luciferase", "value": "<1 µM"}
{"compound": "COc1c[nH]c(=O)c2[nH]cc(C(=O)C(=O)N3CCN(C(=O)c4ccccc4)CC3)c12", "read by": "luciferase", "value": "0.0002–1 µM"}
{"compound": "N#CC1=CC2Nc3ccccc3C2N(c2ccc([N+](=O)[O-])cc2)C1=O", "strain": "N119", "read by": "GFP / fluorescence", "value": "0.3 µM"}
{"compound": "COc1ccc2cc([C@H](C)C(=O)N3CCN(C(=O)c4ccccc4)C[C@H]3C)ccc2c1", "read by": "luciferase / reporter gene", "value": "1–5 µM"}
{"compound": "CC1CN(C(=O)C(=O)c2c[nH]c3cccc(F)c23)CC(C)N1C(=O)c1ccccc1", "strain": "LAI", "read by": "luciferase / reporter gene", "conditions": "pseudotyped", "value": "0.0484 µM"}
{"compound": "COC(=O)CCCNC(=O)Nc1cccc2c(C(=O)C(=O)N3CCN(C(=O)c4ccccc4)C[C@H]3C)c[nH]c12", "read by": "luciferase / reporter gene", "value": "<1 µM"}
{"compound": "COc1ncc(OC)c2c(C(=O)C(=O)N3CCC(=C(c4ccccc4)c4ncco4)CC3)c[nH]c12", "read by": "luciferase", "value": "<1 µM"}
{"compound": "CC1CN(C(=O)c2ccccc2)CCN1C(=O)C(=O)c1ccc2ccccc2n1", "read by": "luciferase / reporter gene", "value": "<1 µM"}
{"compound": "CC(C)(C)C1CN(C(=O)c2ccccc2)CCN1C(=O)C(=O)c1c[nH]c2cccc(F)c12", "strain": "LAI", "read by": "luciferase / reporter gene", "conditions": "pseudotyped", "value": ">5 µM"}
{"compound": "COc1cnc(-n2cnc(C)n2)c2[nH]cc(C(=O)C(=O)N3CCC(=C(c4ccccc4)c4nnc(C(C)(C)C)o4)CC3)c12", "read by": "luciferase", "value": "<1 µM"}
{"compound": "C[C@@H]1CN(C(=O)c2ccccc2)CCN1C(=O)C(=O)c1c[nH]c2c(NC(=O)NCCOCCOCCNC(=O)c3ccc(B(O)O)cc3)cccc12", "read by": "luciferase / reporter gene", "value": "<1 µM"}
{"compound": "COc1ccc(C(=C2CCN(C(=O)C(=O)c3c[nH]c4c(OC)ncc(OC)c34)CC2)c2ccccc2)cc1", "read by": "luciferase", "value": "<1 µM"}
{"compound": "N#CC(C(=O)c1cnc2c(F)ccc(F)c2c1Sc1ccccc1)N1CCN(C(=O)c2ccccc2)CC1", "read by": "luciferase / reporter gene", "value": "1–5 µM"}
{"compound": "C[C@@H]1CN(C(=O)c2ccccc2)CCN1C(=O)C(=O)c1c[nH]c2c(NS(C)(=O)=O)cccc12", "read by": "luciferase / reporter gene", "value": "<1 µM"}
{"compound": "CCCC1CN(C(=O)C(=O)c2c[nH]c3cccc(F)c23)CCN1C(=O)c1ccccc1", "strain": "LAI", "read by": "luciferase / reporter gene", "conditions": "pseudotyped", "value": "0.00355 µM"}
{"compound": "Cc1cc(C#N)cc(C)c1Oc1nc(Nc2ccc(C#N)cc2)nc2sccc12", "strain": "L1001-K103N", "read by": "luciferase", "value": "0.01–0.1 µM"}
{"compound": "N#CC(=C1CCN(C(=O)C(=O)c2c[nH]c3c(-c4cncc(N)n4)ccnc23)CC1)c1ccccc1", "read by": "luciferase", "value": "<1 µM"}
{"compound": "CC1CN(C(=O)c2ccccc2)CCN1C(C#N)C(=O)c1ccc2ccccc2n1", "read by": "luciferase / reporter gene", "value": "<1 µM"}
{"compound": "COc1cnc(-c2ccc(C(=O)O)cc2)c2[nH]cc(C(=O)C(=O)N3CCC(=C(C#N)c4ccccc4)CC3)c12", "read by": "luciferase", "value": "<1 µM"}
{"compound": "COc1cnc(C(N)=O)c2[nH]cc(C(=O)C(=O)N3CCN(C(=O)c4ccccc4)CC3)c12", "read by": "luciferase", "value": "≤0.0002 µM"}
{"compound": "Cc1cc(C#N)cc(C)c1Oc1nc(Nc2ccc(C#N)cc2)nc2ccsc12", "strain": "L1001-K103N", "read by": "luciferase", "value": ">0.1 µM"}
{"compound": "COc1nc2c(cc1N1CCc3cc(F)ccc3C1)c(=O)c(C(=O)O)cn2[C@H](CO)C(C)C", "strain": "NL4-3", "read by": "luciferase", "conditions": "pseudotyped", "value": ">0.1 µM"}
{"compound": "Cc1cc(C)c(Oc2nc(Nc3ccc(C#N)cc3)nc3c(C)csc23)c(C)c1", "strain": "Y-188L", "read by": "luciferase", "value": "0.01–0.1 µM"}
{"compound": "C[C@@H]1CN(C(=O)c2ccccc2)CCN1C(=O)C(C)(O)c1ccc2ccccc2c1", "read by": "luciferase / reporter gene", "value": "1–5 µM"}
{"compound": "CCOC(=O)c1cn([C@H](CO)C(C)C)c2cc(OC)c(NCc3ccc(F)cc3)cc2c1=O", "strain": "NL4-3", "read by": "luciferase", "conditions": "pseudotyped", "value": "<0.01 µM"}
{"compound": "Cc1cc(C)c(Oc2nc(Nc3ccc(C#N)cc3)nc3sccc23)c(C)c1", "strain": "L1001-K103N", "read by": "luciferase", "value": "0.01–0.1 µM"}
{"compound": "COc1ncc(OC)c2c(C(=O)C(=O)N3CCN(C(=O)c4ccccc4)[C@H](C)C3)c[nH]c12", "read by": "luciferase", "value": "0.0002–1 µM"}
{"compound": "CC(C)(C)[C@@H](CO)n1cc(C(=O)NCCN2CCOCC2)c(=O)c2cc(Cc3cccc(Cl)c3F)c(NCCN3CCOCC3)nc21", "strain": "NL4-3", "read by": "luciferase", "conditions": "pseudotyped", "value": "0.01–0.1 µM"}
{"compound": "COc1cnc(-n2cnc(C(=O)N(C)C)n2)c2[nH]cc(C(=O)C(=O)N3CCN(C(=O)c4ccccc4)CC3)c12", "read by": "luciferase", "value": "≤0.0002 µM"}
{"compound": "N#CC(C(=O)c1cc2ccccc2cn1)N1CCN(C(=O)c2ccccc2)CC1", "read by": "luciferase / reporter gene", "value": "<1 µM"}
{"compound": "CC(C)(C)[C@@H](CO)n1cc(C(=O)O)c(=O)c2cc(NCc3ccc(F)cc3)c(F)cc21", "strain": "NL4-3", "read by": "luciferase", "conditions": "pseudotyped", "value": "0.01–0.1 µM"}
{"compound": "COc1cnc(Cl)c2[nH]cc(C(=O)C(=O)N3CCC(=C(C#N)c4ccccc4)CC3)c12", "read by": "luciferase", "value": "<1 µM"}
{"compound": "O=C(C(=O)N1CCN(C(=O)c2ccccc2)CC1)c1c[nH]c2cccc(F)c12", "strain": "LAI", "read by": "luciferase / reporter gene", "conditions": "pseudotyped", "value": "2.9 µM"}
{"compound": "CC(C)[C@@H](CO)n1cc(C(=O)O)c(=O)c2cc(Cc3cccc(Cl)c3F)c(N(C)C)nc21", "strain": "NL4-3", "read by": "luciferase", "conditions": "pseudotyped", "value": ">0.1 µM"}
{"compound": "CC1CC(C)CN(S(=O)(=O)c2ccccc2[N+](=O)[O-])C1", "strain": "52534-2", "read by": "GFP / fluorescence", "value": "1 µM"}
{"compound": "COc1ncc(OC)c2c(C(=O)C(=O)N3CCC(=C(C#N)c4nc5ccccc5s4)CC3)c[nH]c12", "read by": "luciferase", "value": ">5 µM"}
{"compound": "CC1CN(C(=O)c2ccccc2)CCN1C(C#N)C(=O)c1ccc2cc(Br)ccc2n1", "read by": "luciferase / reporter gene", "value": "<1 µM"}
{"compound": "N#CC(=C1CCN(C(=O)C(=O)c2c[nH]c3c(NC(=O)NCCCC(=O)O)cccc23)CC1)c1ccccc1", "read by": "luciferase / reporter gene", "value": "<1 µM"}
{"compound": "COc1cccc2[nH]cc(C(=O)C(=O)N3CCN(C(=O)c4ccccc4)C[C@@H]3C)c12", "strain": "JR-FL", "read by": "luciferase / reporter gene", "conditions": "pseudotyped", "value": "0.00058 µM"}
{"compound": "COc1cnc(-n2cnc(C)n2)c2[nH]cc(C(=O)C(=O)N3CCC(=C(c4ccccc4)c4cncc(CO)c4)CC3)c12", "read by": "luciferase", "value": "<1 µM"}
{"compound": "COc1cnc(C(N)=O)c2[nH]cc(C(=O)C(=O)N3CCN(C(=O)c4ccccc4)[C@H](C)C3)c12", "read by": "luciferase", "value": "≤0.0002 µM"}
{"compound": "C[C@@H]1CN(C(=O)c2ccccc2)CCN1C(=O)C(=O)c1c[nH]c2cccc(F)c12", "strain": "JR-FL", "read by": "luciferase / reporter gene", "conditions": "pseudotyped", "value": "0.00042 µM"}
{"compound": "N#CC(C(=O)c1ccc2cnccc2n1)N1CCN(C(=O)c2ccccc2)CC1", "read by": "luciferase / reporter gene", "value": ">5 µM"}

For reference, 3 entries again:

{"compound": "N#CC(C(=O)c1cc2ccccc2cn1)N1CCN(C(=O)c2ccccc2)CC1", "read by": "luciferase / reporter gene", "value": "<1 µM"}
{"compound": "CC(C)(C)[C@@H](CO)n1cc(C(=O)O)c(=O)c2cc(NCc3ccc(F)cc3)c(F)cc21", "strain": "NL4-3", "read by": "luciferase", "conditions": "pseudotyped", "value": "0.01–0.1 µM"}
{"compound": "CCOC(=O)c1cn([C@H](CO)C(C)C)c2cc(OC)c(NCc3ccc(F)cc3)cc2c1=O", "strain": "NL4-3", "read by": "luciferase", "conditions": "pseudotyped", "value": "<0.01 µM"}